In patent US6001810A, “Methods for treating retroviral infection” (Eli Lilly and Company, priority 1990, dated 1999):
Several values for one entry are separate records, joined by “and”; a condition that tells them apart may be missing. Identical values can stand only once. Like-named read-outs stand apart in the source and are kept apart here. Non-standard residues stand in square brackets, D forms with d. Residues, ends and D or L forms follow the SMILES beside them. Phe(4-NH2) = Nc1ccc(C[C@H](N)C(=O)O)cc1; 1Nal = N[C@@H](Cc1cccc2ccccc12)C(=O)O; Sta = CC(C)C[C@H](N)[C@@H](O)CC(=O)O

What was measured:
[1] = test system: HTLV-IIIB strain of HIV-1; format: cell-based; conditions: MT-2 cells
Protocol: (§1) Quantitative evaluation of the viral inhibition were performed on the T-cell lymphoblastoid cell lines MT-2 (Harada et al., 1985, Science 229:563-566) and CEM (Nara and Fischinger, 1988, Nature 332:469-470). The cells were infected with the HTLV-IIIB strain of HIV-1 from the supernatant fluid of infected human T-lymphocyte cell line H9 (Popovic, M. et al., 1984, Science 224:497-500). Each of these three cell lines are publicly available from the National Institutes of Health (NIH) AIDS Research and Reference Reagent Program. The H9/HTLC-IIIB cell line is available under catalogue number 231, while CEM cell line is available under catalogue number 117 and the MT-2 cell line is available under the catalogue number 237. MT-2 and CEM cells were grown in RPMI 1640 medium supplemented with 10% (v/v) fetal calf serum, 100 U/ml penicillin, 100 μg/ml streptomycin and 25 mM HEPEs buffer. H9 cells were grown in the same medium except 20% fetal calf serum was used. The peptides were diluted in the medium used for MT-2 and CEM cells. Cell cultures were maintained in disposable tissue culture labware at 37° C. in a humidified atmosphere of 5% CO2 in air.
(§2) The inhibitors were dissolved in DMSO at 40 mg/ml or sterile water at 2 mg/ml, then dilutions were made in medium. The dilutions were added to micro-titer plates in 100 μl/well aliquots so that the high drug concentration for each screen was 100 μg/ml after the addition of cells to the well.
(§3) Susceptible MT-2 and CEM cells were grown and the cell population determined by a trypan blue viable cell count. […]
(§4) Reagents for colorimetric evaluation of cell viability were prepared by mixing the tetrazolium reagent, XTT, and phenazine methosulfate (PMS) to final concentrations of 200 μg/ml and 0.02 mM, respectively. […] The plates were read with the sealers in place in a Vmax Plate Reader® at 450 nm and 650 nm. The cytopathic effect (CPE) and percentage of cell viability were then calculated.

[2] = test system: HTLV-IIIB strain of HIV-1; format: cell-based; conditions: CEM cells
Protocol: as §1, §2, §3
as §4, with “calculated. […]” for “calculated.”

Row | SMILES | TI (Therapeutic index, MTC50 divided by ID50) [1] | TI (Therapeutic index, MTC50 divided by ID50) [2]
1 | Nc1ccn([C@H]2CC[C@@H](CO)O2)c(=O)n1 [DDC, 2', 3Dideoxycytidine] | > 93 and 101 | –
2 | CC(=O)N[C@@H](Cc1cccc2ccccc12)C(=O)N1CCC[C@H]1C(=O)N[C@@H](Cc1ccccc1)C(=O)N[C@H](C(=O)N[C@@H](CC(C)C)[C@@H](O)CC(=O)N[C@@H](CC(C)C)C(=O)N[C@@H](Cc1ccccc1)C(N)=O)C(C)C [P-7, Ac NA Pro Phe Val Statine Leu Phe NH2] (Ac-[1Nal]PFV[Sta]LF-NH2) | 38 | 57
3 | COc1ccc(C[C@H](NC(C)=O)C(=O)N2CCC[C@H]2C(=O)N[C@@H](Cc2ccccc2)C(=O)N[C@H](C(=O)N[C@@H](CC(C)C)[C@@H](O)CC(=O)N[C@@H](CC(C)C)C(=O)N[C@@H](Cc2ccccc2)C(N)=O)C(C)C)cc1 [P-9, Ac YOM Pro Phe Val Statine Leu Phe NH2] (Ac-Y(Me)PFV[Sta]LF-NH2) | 109 and 96 | > 137 and 101
4 | CC(C)C[C@H](NC(=O)C[C@H](O)[C@H](CC(C)C)NC(=O)[C@@H](NC(=O)[C@H](Cc1ccccc1)NC(=O)[C@@H]1CCCN1C(=O)[C@@H](N)Cc1c[nH]cn1)C(C)C)C(=O)N[C@@H](Cc1ccccc1)C(=O)N[C@@H](Cc1ccc(N)cc1)C(N)=O [P-15, H-His Pro Phe Val Statine Leu Phe paF NH2] (H-HPFV[Sta]LF[Phe(4-NH2)]-NH2) | – | > 1.3
